2 substances from patent US10376456B2, “Concentrated and self-preserving compositions of mild surfactants for transparent and skin-pH personal care formulations” (GALAXY SURFACTANTS LTD., priority 2015, dated 2019) can be followed below.

A short description of the data set: Foam volume and lather potential (drainage time), Hart-DeGeorge method. Type of data set: physicochemical. To be noted: Surfactant (1%) at 25° C. and at pH 6.5.

As for Sodium cocoyl isethionate, the Foam volume is recorded as 380 mL.

sodium cocoyl glycinate registered a Foam volume of 200 mL.
